A mixed list of measured activities; the numbers were collected in NIAID ChemDB.

Common to all: whole-cell or culture tests; species: Cryptococcus neoformans

Blank or dashed fields: not listed here. a–b is a range or a potency band. Rows are shuffled and stem from different studies. A number after MIC or MFC names an inhibition level or a share of isolates. ECn is the concentration giving n% inhibition of infection, replication or growth.

structure,strain or isolate,read by,measure,result
CC(C)C[C@@H]1CN2C(=NC[C@H]2C2CCCCC2)N1CCC12CC3CC(CC(C3)C1)C2,ATCC 32045,-,EC50,9.1 µg/mL
CCCCNC(=O)n1c(NC(=O)OC)nc2ccccc21,ATCC 14116,-,EC90,3.5 µg/mL
CC[C@@H]([C@H](C)O)n1ncn(-c2ccc(N3CCN(c4ccc(OC[C@@H]5CO[C@@](Cn6cncn6)(c6ccc(F)cc6F)C5)cc4)CC3)cc2)c1=O,-,-,MIC50,0.004–0.06 µg/mL
CC(C)(C)C1CCC(CN2C3=NC[C@H](C4CCCCC4)N3C[C@H]2C2CCCCC2)CC1,ATCC 32045,-,EC50,4.5 µg/mL
CCCCCOc1ccc(-c2ccc(-c3ccc(C(=O)N[C@H]4C[C@@H](O)[C@@H](O)NC(=O)[C@@H]5[C@@H](O)[C@@H](C)CN5C(=O)[C@H]([C@H](C)O)NC(=O)[C@H]([C@H](O)[C@@H](O)c5ccc(O)cc5)NC(=O)[C@@H]5C[C@@H](O)CN5C(=O)[C@H]([C@H](C)O)NC4=O)cc3)cc2)cc1,-,-,MIC90,>8 µg/mL
CCCCCCCCCCCCCCCCCCCO,ATCC 208821,broth dilution,MLC,200 µg/mL
C1CCC(C[C@@H]2CN3C(=NC[C@@H]3CC3CCCCC3)N2CCC23CC4CC(CC(C4)C2)C3)CC1,ATCC 32045,-,EC50,2.3 µg/mL
N=C(N)c1ccc(OCCCCCOc2ccc(C(=N)N)cc2)cc1,-,-,MIC50,0.031–32 µg/mL
Clc1ccc(-n2ncc(C(c3ccccc3)n3ccnc3)c2-c2ccccc2)c(Cl)c1,-,-,MBC,33.3 µM
CC(C)(C)C1CCC(CN2C3=NC[C@H](CC4CCCCC4)N3C[C@H]2C2CCCCC2)CC1,ATCC 32045,-,EC50,3.5 µg/mL
COc1cnc2c3c(nccc13)C1SC=CC1C2=O,-,-,MIC80,>64 µg/mL
COc1cc(/C=C/[N+](=O)[O-])cc(OC)c1OC,24 isolates,-,MFC,4–32 µg/mL
CCCCCCCCCCN[C@H]1CCc2cc(OC)c(OC)cc2C1,-,-,MIC80,1 µg/mL
C[C@H]1[C@H](O)[C@@H](C)/C=C/C=C/C=C/C=C/C=C/C=C/C=C/[C@H](O[C@@H]2O[C@H](C)[C@@H](O)[C@H](N)[C@@H]2O)C[C@@H]2O[C@](O)(C[C@@H](O)C[C@@H](O)CC[C@H](O)[C@@H](O)C[C@@H](O)CC(=O)O[C@H]1C)C[C@H](O)[C@H]2C(=O)O,-,-,MBC,3.7 µM
CC1(C)C=C2C3CCC4[C@@]5(C)CCC(=O)C(C)(C)C5CC[C@@]4(C)[C@]3(C)CC[C@@]2(C(=O)O)CC1,ATCC 208821,broth dilution,MLC,>200 µg/mL
CCCCCCCCCN1CCc2cc(OC)c(OC)cc2C1,-,-,MIC80,16 µg/mL
COC(=O)Nc1nc2ccccc2[nH]1,IU8698,-,EC50,1.5 µg/mL
c1ccc2[nH]c(-c3cscn3)nc2c1,-,-,MIC50,0.12–128 µg/mL
C1CCC(C[C@H]2CN=C3N2C[C@@H](C2CCCCC2)N3CCC23CC4CC(CC(C4)C2)C3)CC1,ATCC 32045,-,EC50,3.6 µg/mL
C[C@@H](c1ncncc1F)[C@](O)(Cn1cncn1)c1ccc(F)cc1F,ATCC32609,-,MIC80,0.04 µM
c1ccc2c(c1)-c1nccc3ccnc-2c13,ATCC52627,-,EC50,4.8 µg/mL
CC(C)(C)C1CCC(CN2C3=NC[C@H](CC4CCCCC4)N3C[C@@H]2CC2CCCCC2)CC1,ATCC 32045,-,EC50,2.2 µg/mL
CCCCCCCCCCCCN[C@@H]1CCc2cc(OC)c(OC)cc2C1,-,-,MIC80,1 µg/mL
CC(=O)N1CCN(c2ccc(OC[C@H]3CO[C@](Cn4ccnc4)(c4ccc(Cl)cc4Cl)O3)cc2)CC1,ATCC 32264,broth dilution,MIC100,0.25 µg/mL
CC(C)(C)C1CCC(CN2C3=NC[C@@H](C4CCCCC4)N3C[C@@H]2CC2CCCCC2)CC1,ATCC 32045,-,EC50,2.8 µg/mL
CCCCCCCCCN[C@H]1CCc2cc(OC)c(OC)cc2C1,-,-,MIC80,4 µg/mL
COc1ccc(NS(=O)(=O)c2ccc(N)cc2)nn1,-,-,MIC50,0.62–640 µg/mL
CN(C)C1=NC(=O)/C(=C/c2ccccc2)S1,ATCC 32264,broth dilution,MIC100,250 µg/mL
COC(=O)Nc1nc2ccc(C(=O)c3cccs3)cc2[nH]1,IU8698,-,EC90,0.12 µg/mL
COc1ccc(/C=C2\SC(N(C)C)=NC2=O)cc1,ATCC 32264,broth dilution,MIC100,>250 µg/mL
c1ccc(-c2c(C(c3ccccc3)n3ccnc3)cnn2-c2ccccc2)cc1,-,-,MBC,22 µM
OC(Cn1cncn1)(Cn1cncn1)c1ccc(F)cc1F,ATCC32609,-,MIC80,0.82 µM
CC(=O)OC1C=COC=C2CC34SSC5(CC6=COC=CC(OC(C)=O)C6N5C3=O)C(=O)N4C21,E138,-,EC50,10 µg/mL
C1CCC([C@H]2CN3C(=NC[C@H]3C3CCCCC3)N2CCC23CC4CC(CC(C4)C2)C3)CC1,ATCC 32045,-,EC50,2.4 µg/mL
Cc1ccc(C(C)C)c(O)c1,CBS 132,broth dilution / turbidity,EC50,0.16 µM
COC(=O)[C@]12CCC(C)(C)C=C1C1CCC3[C@@]4(C)CCC(=O)C(C)(C)C4CC[C@@]3(C)[C@]1(C)CC2,ATCC 208821,broth dilution,MLC,200 µg/mL
CCCCCCCCCCCCN1CCc2cc(OC)c(OC)cc2C1,-,-,MIC80,16 µg/mL
CC(C)(C)[C@](O)(COc1ccc(Cl)cc1)Cn1cncn1,-,-,MLC90,>0.08 µg/mL
CCCCCOc1ccc(-c2cc(-c3ccc(C(=O)N[C@H]4C[C@@H](O)[C@@H](O)NC(=O)[C@@H]5[C@@H](O)[C@@H](C)CN5C(=O)[C@H]([C@H](O)CC(N)=O)NC(=O)[C@H]([C@H](O)[C@@H](O)c5ccc(O)c(OS(=O)(=O)O)c5)NC(=O)[C@@H]5C[C@@H](O)CN5C(=O)[C@H]([C@@H](C)O)NC4=O)cc3)no2)cc1,-,-,MIC50,>8 µg/mL
Nc1ccc(S(=O)(=O)Nc2ncccn2)cc1,-,-,MIC50,320 µg/mL
CC(C)C[C@@H]1CN2C(=NC[C@@H]2C2CCCCC2)N1CCC12CC3CC(CC(C3)C1)C2,ATCC 32045,-,EC50,4.5 µg/mL
CCN(CC)CCCC(C)Nc1ccnc2cc(Cl)ccc12,-,-,MIC50,0.031–32 µg/mL
Cc1ccc(C(F)(F)C(F)(F)c2ccc(C(C)(C)N)cc2)cc1,MY2062,-,MIC100,0.25 µg/mL
CO[C@@H]1[C@@H](O)[C@H](O[C@@H]2[C@@H](O)[C@H](O[C@H]3[C@H](O)[C@@H](O)[C@H](O[C@H]4[C@H](O[C@H]5CC[C@]6(C)C7=C[C@H](O)[C@]89C(=O)O[C@@](C)(CCC=C(C)C)[C@@]8(O)CC[C@@]9(C)[C@@H]7CC[C@H]6C5(C)C)OC[C@@H](O[C@@H]5O[C@H](CO)[C@@H](O)[C@H](O[C@@H]6O[C@H](CO)[C@@H](O)[C@H](OC)[C@H]6O)[C@H]5O)[C@@H]4O)O[C@@H]3C)O[C@H](CO)[C@H]2O)O[C@H](CO)[C@H]1O,ATCC32609,-,MIC80,0.69 µM
CCCCCCCCCCN[C@@H]1CCc2cc(OC)c(OC)cc2C1,-,-,MIC80,1 µg/mL
CN(C/C=C/C#CC(C)(C)C)Cc1cccc2ccccc12,ATCC,broth dilution,MIC80,13.7 µM
O=C(O)c1ccccc1,CBS 132,-,EC50,0.26 µM
CCC(C)CC(C)CCCCCCCCC(=O)N[C@H]1C[C@@H](O)[C@H](NCCN)NC(=O)[C@@H]2[C@@H](O)CCN2C(=O)[C@H]([C@H](O)CCN)NC(=O)[C@H]([C@H](O)[C@@H](O)c2ccc(O)cc2)NC(=O)[C@@H]2C[C@@H](O)CN2C(=O)[C@H]([C@@H](C)O)NC1=O,-,-,MIC50,8–16 µg/mL
O=C(O)c1ccccc1O,CBS 132,broth dilution / turbidity,EC50,0.35 µM
COc1cc(NC(C)CCCN)c2ncccc2c1,-,-,MIC50,0.002–2 µg/mL

4 of the rows above, restated:

{"structure": "Clc1ccc(-n2ncc(C(c3ccccc3)n3ccnc3)c2-c2ccccc2)c(Cl)c1", "measure": "MBC", "result": "33.3 µM"}
{"structure": "COC(=O)Nc1nc2ccccc2[nH]1", "strain or isolate": "IU8698", "measure": "EC50", "result": "1.5 µg/mL"}
{"structure": "COc1ccc(/C=C2\\SC(N(C)C)=NC2=O)cc1", "strain or isolate": "ATCC 32264", "read by": "broth dilution", "measure": "MIC100", "result": ">250 µg/mL"}
{"structure": "CC(C)(C)C1CCC(CN2C3=NC[C@H](CC4CCCCC4)N3C[C@H]2C2CCCCC2)CC1", "strain or isolate": "ATCC 32045", "measure": "EC50", "result": "3.5 µg/mL"}